Share of PSTVd stem 3 variants by leaf site

The measurements come from Wu et al. 2024 (doi:10.1371/journal.ppat.1012142).

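A pool of all variants was put on leaves of three Nicotiana benthamiana plants. Samples came from the inoculated region at 5 days, the leaf margin at 10 and upper systemic leaves at 12.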

The pool varies stem 3 of the PSTVd intermediate strain in the pattern GUGGUUCCGNANNCNN; wild type is GUGGUUCCGGAACCGC (upper and lower strand joined, each 5' to 3', the first 8 letters being the upper strand).

Values are reads per thousand in the sample; higher means more abundant, 0 means not found.
Each value is the mean of three plants.
"Pool" is the share in the plasmid pool used as inoculum, on the same scale.
The inoculated region was read from the minus strand, the other sites from the plus strand.
IR is the inoculated region, LM the leaf margin, Sys the systemic leaves.

| sequence | pool | IR | LM | Sys |
|---|---|---|---|---|
| GUGGUUCCGGACUCUU | 1.71 | 1.23 | 0 | 0.0808 |
| GUGGUUCCGCACGCGG | 1.02 | 0.329 | 0.0106 | 0 |
| GUGGUUCCGAAAGCGG | 0.939 | 0.244 | 0.0120 | 0 |
| GUGGUUCCGAACCCAG | 0.769 | 0.760 | 0.130 | 0 |
| GUGGUUCCGCAGUCGG | 1.03 | 0.854 | 0.00944 | 0 |
| GUGGUUCCGCAUACCA | 0.723 | 0.271 | 0 | 0 |
| GUGGUUCCGAAGACCA | 1.02 | 0.768 | 0.401 | 0 |
| GUGGUUCCGUAGACGU | 0.816 | 0.798 | 0 | 0 |
| GUGGUUCCGUACACAA | 0.862 | 0.292 | 0 | 0 |
| GUGGUUCCGUAUGCUU | 1.57 | 0.808 | 0.106 | 0.0186 |
| GUGGUUCCGGAGGCAG | 0.893 | 0.899 | 0 | 0 |
| GUGGUUCCGCAAGCCG | 0.723 | 0.304 | 0 | 0 |
| GUGGUUCCGCAUUCAA | 1.71 | 1.12 | 0.0335 | 0.0435 |
| GUGGUUCCGAAUCCUA | 0.785 | 0.330 | 0.0215 | 0 |
| GUGGUUCCGUACCCCA | 0.893 | 0.470 | 0.0295 | 0 |
| GUGGUUCCGUACGCGC | 0.877 | 0.269 | 0.0106 | 0 |
| AUGGUUCCGAAGUCCU | 0.0154 | 0 | 0.0106 | 0 |
| GUGGUUCCGUAGGCAU | 1.52 | 1.55 | 0.942 | 1.18 |
| GUGGUUCCGUACUCAU | 0.800 | 0.835 | 0.554 | 0 |
| GUGGUUCCGCAUUCCG | 0.954 | 0.217 | 0 | 0 |
| GUGGUUCCAGAGGCUG | 0.0154 | 0.541 | 0.215 | 0 |
| GUGGUUACGCAAUCGA | 0.0154 | 0 | 0 | 0 |
| GUGGUUCCGUACGCAU | 0.769 | 0.804 | 0.155 | 0 |
| GUGGUUCCGGAGCCAG | 0.723 | 0.765 | 0.120 | 0 |
| GUGGUUCCGGAGACUG | 1.66 | 0.554 | 0 | 0.0392 |
| GUGGUUCCGUACUCUA | 0.954 | 0.570 | 0 | 0.0124 |
| GUGGUUCCGAAGGCAC | 0.862 | 0.793 | 0.525 | 0 |
| GUGGUUCCGCACCCGG | 0.831 | 0.215 | 0.00944 | 0 |
| GUGGUUCCGGAUUCAG | 0.862 | 0.792 | 0.0200 | 0 |
| GUGGUUCCGUAUCCCC | 1.26 | 0.897 | 0.228 | 0.00615 |
| GUGGUUCCGAACGCCU | 0.970 | 0.761 | 0.422 | 0 |
| GUGGUUCCGGAGUCCA | 1.71 | 1.33 | 0.0708 | 0.0124 |
| GUGGUUCCGCAUUCUG | 1.22 | 0.446 | 0.0427 | 0 |
| GUGGUUCCGUAGACGC | 0.816 | 0.231 | 0.0120 | 0 |
| GUGGUUCCGAAGGCGC | 0.954 | 1.26 | 0.768 | 0 |
| GUGGUUCCGUAAUCGG | 0.877 | 0.342 | 0 | 0 |
| GUGGUUCCGAAAACGU | 0.954 | 0.984 | 0.469 | 0 |
| GUGGUUCCGGACUCGA | 0.708 | 0.283 | 0.0200 | 0 |
| GUGGUUCCGGACCCUU | 0.816 | 0.356 | 0 | 0 |
| GUGGUUCCGGAUCCCC | 0.723 | 0.315 | 0.0189 | 0 |
| GUGGUUCCGGAAGCCU | 1.02 | 0.280 | 0.0106 | 0 |
| GUGGUUCCGCAGUCUC | 0.769 | 0.645 | 0.156 | 0 |
| GUGGUUCCGAACUCCA | 1.20 | 0.866 | 0.0241 | 0.00621 |
| GUGGUUCCGGACACGC | 0.785 | 0.294 | 0 | 0 |
| GUGGUUCAGGAGCCAA | 0.0154 | 0 | 0 | 0 |
| GUGGUUCCGGACUCGC | 1.57 | 0.659 | 0.0321 | 0.00811 |

The first 5 entries again:

- GUGGUUCCGGACUCUU (pool 1.71) -> IR 1.23; LM 0; Sys 0.0808
- GUGGUUCCGCACGCGG (pool 1.02) -> IR 0.329; LM 0.0106; Sys 0
- GUGGUUCCGAAAGCGG (pool 0.939) -> IR 0.244; LM 0.0120; Sys 0
- GUGGUUCCGAACCCAG (pool 0.769) -> IR 0.760; LM 0.130; Sys 0
- GUGGUUCCGCAGUCGG (pool 1.03) -> IR 0.854; LM 0.00944; Sys 0

Sequences that differ at fixed positions probably stem from PCR or sequencing errors, and defective variants can be carried along by functional ones.
For reference, wild type rose from 17.3 per thousand in the pool to 330, 345, 235 (inoculated region), 794, 766, 816 (leaf margin) and 830, 792, 869 (systemic leaves).
With 27,691-54,225 reads a sample, very low values are single reads.